Measured values from several laboratories, pooled; numbers as filed in NIAID ChemDB.

Common to all: tests in culture; species: Candida albicans

a–b is a range or a potency band. ECn: concentration that inhibits the pathogen or its effect by n%. MIC50, MIC90 and the like: level of inhibition, or share of isolates inhibited. Neighbouring rows are from separate reports.

{"compound": "S=C([S][Sn]([c]1ccccc1)([c]1ccccc1)[c]1ccccc1)N1CCCC1", "strain or isolate": "ATCC 18804", "measure": "MIC", "value": "5 µg/mL"}
{"compound": "C[C@H]1[C@H](O)[C@@H](C)/C=C/C=C/C=C/C=C/C=C/C=C/C=C/[C@H](O[C@@H]2O[C@H](C)[C@@H](O)[C@H](N)[C@@H]2O)C[C@@H]2O[C@](O)(C[C@@H](O)C[C@@H](O)CC[C@H](O)[C@@H](O)C[C@@H](O)CC(=O)O[C@H]1C)C[C@H](O)[C@H]2C(=O)O", "strain or isolate": "4054 strains (fluconazole-susceptible)", "measure": "MIC50", "value": "0.5 µg/mL"}
{"compound": "C[C@@H](c1nc(-c2ccc(C#N)cc2)cs1)[C@](O)(Cn1cnnc1)c1ccc(F)cc1F", "strain or isolate": "Isogenic isolate 5 MDR1 (25X)", "measure": "MIC", "value": "≤0.008 µg/mL"}
{"compound": "CC(=O)N1CCN(c2ccc(OC[C@H]3CO[C@](Cn4ccnc4)(c4ccc(Cl)cc4Cl)O3)cc2)CC1", "measure": "MFC", "value": "32 µg/mL"}
{"compound": "CC(=O)Oc1ccc2ccc(=O)oc2c1", "strain or isolate": "ATCC 14053", "measure": "MIC", "value": "250 µg/mL"}
{"compound": "COc1cc(Cc2cnc(N)nc2N)cc(OC)c1OCCCNc1ccc(S(=O)(=O)c2ccc(N)cc2)cc1", "strain or isolate": "YEM15 (CDR1CDR2UP)", "measure": "MIC", "value": ">64 µg/mL"}
{"compound": "C[C@H]1[C@@H](Oc2ccc(O)cc2)O[C@@H]2O[C@]3(C)CC[C@H]4[C@H](C)CC[C@@H]1C24OO3", "strain or isolate": "ATCC 90028", "measure": "MIC", "value": ">50 µg/mL"}
{"compound": "O=C(/C=C/c1ccc(Cl)cc1Cl)c1ccc(Cl)cc1Cl", "strain or isolate": "ATCC 10231", "measure": "MIC", "value": ">50 µg/mL"}
{"compound": "COc1ccc2c(Cc3ccc(F)cc3)c3[n+](cc2c1OC)CCc1cc2c(cc1-3)OCO2.[Br-]", "method": "broth dilution", "changes": "Fluconazole-resistant", "strain or isolate": "Clinical isolate", "measure": "MIC80", "value": "64 µg/mL"}
{"compound": "COc1cc(Cc2cnc(N)nc2N)ccc1OCCCCN1C(=O)c2ccccc2C1=O", "strain or isolate": "YEM27 (quadruple deletion)", "measure": "MIC", "value": "64 µg/mL"}
{"compound": "c1ccc([Se][Se]c2ccccc2)cc1", "method": "broth dilution", "strain or isolate": "ATCC 44773", "measure": "MIC", "value": "16 µg/mL"}
{"compound": "COc1cc(O)c2c(c1)C(=O)c1c(cc3c(c1O)-c1c(cc(C)c(C(=O)N[C@H](CO)C(=O)O)c1O)[C@H](O[C@@H]1O[C@H](C)[C@H](O)[C@H](O)[C@H]1O)[C@H]3O)C2=O", "strain or isolate": "ATCC 32354", "measure": "MIC", "value": "3.1 µg/mL"}
{"compound": "O=c1ccc2ccc(Cl)cc2o1", "strain or isolate": "ATCC 14053", "measure": "MIC", "value": "500 µg/mL"}
{"compound": "O=C(Cc1ccccc1[N+](=O)[O-])NCCc1ccc2c(c1)OCO2", "method": "broth dilution", "changes": "Fluconazole-resistant", "strain or isolate": "Clinical isolate", "measure": "MIC80", "value": ">64 µg/mL"}
{"compound": "C=CC(C)(C)c1cc2cc3ccoc3cc2oc1=O", "strain or isolate": "ATCC 14053", "measure": "MIC", "value": "500 µg/mL"}
{"compound": "C[C@@]12CCC[C@]3(C)C4=CC(=O)OC(O)[C@]45O[C@@H]5C(OC1=O)[C@@H]23", "strain or isolate": "ATCC 90028", "measure": "MIC", "value": ">64 µg/mL"}
{"compound": "C=C1[C@@H](OCCO)O[C@@H]2O[C@]3(C)CC[C@H]4[C@H](C)CC[C@@H]1C24OO3", "strain or isolate": "ATCC 90028", "measure": "MIC", "value": ">50 µg/mL"}
{"compound": "Clc1ccc([Se][Se]c2ccc(Cl)cc2)cc1", "method": "broth dilution", "measure": "MIC", "value": ">64 µg/mL"}
{"compound": "CN1CCN(CCCN2c3ccccc3Sc3ccc(Cl)cc32)CC1", "method": "broth dilution", "measure": "MIC", "value": "32 µg/mL"}
{"compound": "CN(C/C=C/C#CC(C)(C)C)Cc1cccc2ccccc12", "measure": "MIC", "value": "8 µg/mL"}
{"compound": "N#Cc1ccc2oc(=O)ccc2c1", "strain or isolate": "ATCC 14053", "measure": "MIC", "value": "500 µg/mL"}
{"compound": "CO[C@@H]1O[C@@H]2O[C@]3(C)CC[C@H]4[C@H](C)CC[C@@H]([C@H]1C)C24OO3", "strain or isolate": "ATCC 90028", "measure": "EC50", "value": ">50 µg/mL"}
{"compound": "CCN(CC)C(=S)[S][Sn]([c]1ccccc1)([c]1ccccc1)[c]1ccccc1", "strain or isolate": "ATCC 18804", "measure": "MIC", "value": "2.5 µg/mL"}
{"compound": "C=CCc1ccc(O)c(-c2ccc(O)c(CC=C)c2)c1", "method": "broth dilution", "strain or isolate": "YL 313", "measure": "MIC", "value": "64 µg/mL"}
{"compound": "Fc1ccc(C2=[N+](Cc3ccccc3)CCc3cc4c(cc32)OCO4)c(F)c1.[Br-]", "method": "broth dilution", "changes": "Fluconazole-resistant", "strain or isolate": "Clinical isolate", "measure": "MIC80", "value": ">64 µg/mL"}
{"compound": "C[C@@H]1[C@H](O)[C@@H](C)/C=C/C=C/C=C/C=C/C=C/C=C/C=C/[C@H](OC2O[C@@H](C)[C@H](O)[C@@H](N)[C@H]2O)C[C@@H]2OC(O)(C[C@@H](O)C[C@@H](O)[C@H](O)CC[C@@H](O)C[C@@H](O)CC(=O)C[C@H]1C)C[C@H](O)[C@H]2C(=O)O", "strain or isolate": "MTCC 3958", "measure": "MIC", "value": "300 µg/mL"}
{"compound": "CN[C@H]1CC[C@@H](c2ccc(Cl)c(Cl)c2)c2ccccc21", "method": "broth dilution", "measure": "EC50", "value": "14–28 µg/mL"}
{"compound": "C[C@H]1[C@@H](OCCCCO)O[C@@H]2O[C@]3(C)CC[C@H]4[C@H](C)CC[C@@H]1C24OO3", "strain or isolate": "ATCC 90028", "measure": "MIC", "value": ">50 µg/mL"}
{"compound": "CC[C@H]1OC(=O)C=C2C1=CC1OC(=O)[C@@]3(C)CCC[C@@]2(C)[C@@H]13", "strain or isolate": "ATCC 90029", "measure": "MIC", "value": "8 µg/mL"}
{"compound": "COC(=O)C(C(=O)OC)C(CC(=O)c1ccccc1)c1cccc(OC)c1OC", "strain or isolate": "ATCC 10231", "measure": "MIC", "value": ">50 µg/mL"}
{"compound": "C[C@H](CCC(=O)NCCNCCNC(=O)CC[C@@H](C)[C@H]1CCC2C3C(C[C@H](C)[C@@]21O)[C@@]1(C)CC[C@@H](O)CC1C[C@H]3O)[C@H]1CCC2C3C(C[C@H](C)[C@@]21O)[C@@]1(C)CC[C@@H](O)CC1C[C@H]3O", "strain or isolate": "Isolate 5", "measure": "MIC", "value": "0.011 µM"}
{"compound": "COc1cc(C=O)cc(OC)c1OC", "method": "broth dilution", "strain or isolate": "ATCC 90028", "measure": "MIC50", "value": "1000 µg/mL"}
{"compound": "CC(=O)N[C@H]1[C@@H](O[C@@H]2O[C@H](C[C@@H](O)[C@H]3O[C@@H](n4ccc(=O)[nH]c4=O)[C@H](O)[C@@H]3O)[C@H](O)[C@H](O)[C@H]2NC(=O)/C=C/CC(C)C)O[C@H](CO)[C@@H](O)[C@@H]1O", "measure": "MFC", "value": "8 µg/mL"}
{"compound": "O=C(/C=C/c1ccc(Cl)cc1)c1ccc(Cl)cc1", "strain or isolate": "ATCC 10231", "measure": "MIC", "value": ">50 µg/mL"}
{"compound": "CCN(CC)C(=S)[S][Sn]([S]C(=S)N(CC)CC)([S]C(=S)N(CC)CC)[c]1ccccc1", "strain or isolate": "Drug-resistant isolate", "measure": "MIC", "value": "75 µg/mL"}
{"compound": "CO[C@H]1O[C@@H]2O[C@@]3(C)CC[C@H]4[C@H](C)CC[C@@H]([C@H]1C)[C@@]24OO3", "strain or isolate": "ATCC 90028", "measure": "MIC", "value": ">50 µg/mL"}
{"compound": "CCN(CC)CCOc1ccc(C(=C(Cl)c2ccccc2)c2ccccc2)cc1", "method": "broth dilution", "measure": "MIC", "value": "64 µg/mL"}
{"compound": "C[C@H]1[C@H](O)[C@@H](C)/C=C/C=C/C=C/C=C/C=C/C=C/C=C/[C@H](O[C@@H]2O[C@H](C)[C@@H](O)[C@H](N)[C@@H]2O)C[C@@H]2O[C@](O)(C[C@@H](O)C[C@@H](O)CC[C@H](O)[C@@H](O)C[C@@H](O)CC(=O)O[C@H]1C)C[C@H](O)[C@H]2C(=O)O", "measure": "MFC", "value": "0.25 µg/mL"}
{"compound": "C1CCC(C(CC2CCCCN2)C2CCCCC2)CC1", "method": "broth dilution", "measure": "MIC", "value": "32 µg/mL"}
{"compound": "CCN(CC)C(=S)[S][Sn]([S]C(=S)N(CC)CC)([c]1ccccc1)[c]1ccccc1", "strain or isolate": "ATCC 18804", "measure": "MIC", "value": "40 µg/mL"}
{"compound": "Cc1ccccc1C(=O)NCCc1ccc2c(c1)OCO2", "method": "broth dilution", "changes": "Fluconazole-resistant", "strain or isolate": "Clinical isolate", "measure": "MIC80", "value": "32 µg/mL"}
{"compound": "CCC(C)CCCCCCCCCCC(=O)N[C@H]1C[C@@H](O)[C@@H](O)NC(=O)C2[C@@H](O)[C@@H](C)CN2C(=O)C(CO)NC(=O)C([C@H](O)C(O)c2ccc(O)cc2)NC(=O)NC(=O)[C@@H]2C[C@@H](O)CN2C(=O)[C@H]([C@@H](C)O)NC1=O", "measure": "MIC", "value": "1 µg/mL"}
{"compound": "CCN(CC)C(=S)[S][Sn]([Cl])([Cl])[S]C(=S)N(CC)CC", "strain or isolate": "ATCC 18804", "measure": "MIC", "value": "30 µg/mL"}
{"compound": "CN(C/C=C/C#CC(C)(C)C)Cc1cccc2ccccc12", "strain or isolate": "CI-2", "measure": "MIC50", "value": "2 µg/mL"}
{"compound": "C[C@@H]1[C@H](O)[C@@H](C)/C=C/C=C/CC/C=C/C=C/C=C/C=C/C(O[C@H]2O[C@H](C)[C@@H](O)[C@H](N)[C@@H]2O)CC2O[C@](O)(CC(O)C(O)CCC(O)CC(O)CC(O)CC(=O)O[C@H]1C)CC(O)C2C(=O)O", "method": "broth dilution", "strain or isolate": "MD 37", "measure": "MIC100", "value": "64 µg/mL"}
{"compound": "C=CC[C@@H]1/C=C(/C)C[C@H](C)C[C@H](OC)[C@H]2O[C@@](O)(C(=O)C(=O)N3CCCC[C@H]3C(=O)O[C@H](/C(C)=C/[C@@H]3CC[C@@H](O)[C@H](OC)C3)[C@H](C)[C@@H](O)CC1=O)[C@H](C)C[C@@H]2OC", "strain or isolate": "YAG171 (genotype RBP1/RBP1)", "measure": "MIC", "value": ">3.12 µg/mL"}
{"compound": "COc1cccc(/C=C/C(=O)c2ccc(Br)cc2)c1OC", "strain or isolate": "ATCC 10231", "measure": "MIC", "value": ">50 µg/mL"}
{"compound": "O=Cc1ccc2oc(=O)ccc2c1", "strain or isolate": "ATCC 14053", "measure": "MIC", "value": "500 µg/mL"}
{"compound": "CCC(C)n1ncn(-c2ccc(N3CCN(c4ccc(OC[C@H]5CO[C@](Cn6cncn6)(c6ccc(Cl)cc6Cl)O5)cc4)CC3)cc2)c1=O", "strain or isolate": "85 strains (fluconazole-resistant)", "measure": "MIC50", "value": "1 µg/mL"}